Measured values from several laboratories, pooled; numbers as filed in NIAID ChemDB.

Common to all: cytotoxicity tests; cell line: U-937; measure: CC50

a–b is a range or a potency band.

compound | method | value
O=C(/C=C/c1ccco1)O/N=C1\c2ccccc2-c2c1c(N1CCN(c3ccccn3)CC1)nc1ccc(Br)cc21 | MTT | >10 µg/mL
CCCN(C)C(=O)Oc1nsnc1-c1c(Cl)cccc1Cl |  | 131 µM
CC[C@@H]1O[C@@H]([C@]2(C)C[C@@H](C)[C@](O)([C@]3(C)CC[C@@H]([C@@H](O)[C@]4(O)O[C@H](C[C@@]5(O)O[C@@H]([C@@H](C)[C@H](O)C[C@@H]6O[C@H]([C@@H](C)C(=O)O)[C@@H](C)C[C@H]6C)CC[C@@H]5C)[C@@H](C)C[C@H]4C)O3)O2)CC[C@@]1(C)O |  | 0.8 µg/mL
C=CCNC(=O)N1CC=CC1=O | MTT / absorbance | 848 µM
Nc1nc(=O)n([C@@H]2CC[C@H](CO)O2)cc1F |  | 25 µM
CC(=O)c1ccc(C)cc1NC(C(N)=O)c1c(Cl)cccc1Cl |  | 47 µM
CCCCCCCCC(=O)OC1(C)c2ccccc2-c2c1c(-n1ccnc1)nc1ccc(Br)cc21 | MTT | 20 µg/mL
O=C(O)c1cc(O)cc(O)c1N=Nc1ccc(/C=C/c2ccc(N=Nc3c(O)cc(O)cc3C(=O)O)cc2S(=O)(=O)O)c(S(=O)(=O)O)c1 |  | 154 µg/mL
Nc1nc(NC2CC2)c2ncn([C@H]3C=C[C@@H](CO)C3)c2n1 |  | 310 µM
Cc1cn([C@H]2C[C@H](N=[N+]=[N-])[C@@H](CO)O2)c(=O)[nH]c1=O |  | 19.7 µg/mL
COc1ccc(CN[C@@H](C(=O)N[C@H](C(=O)NCc2nc3ccccc3[nH]2)C(C)C)[C@H](O)[C@H](Cc2ccccc2)NC(=O)[C@@H](NC(=O)OCc2ccccc2)C(C)(C)C)cc1 |  | 12.2 µM
COc1ccc(CN[C@@H](C(=O)N[C@H]2c3ccccc3C[C@H]2O)[C@H](O)[C@H](Cc2ccccc2)NC(=O)[C@@H](NC(=O)OCc2ccccc2)C(C)(C)C)cc1 |  | 10 µM
C=C(C)[C@]12C[C@@H](COC(=O)c3ccccc3)[C@@]34O[C@]5(O[C@@H]1[C@@H]3[C@@H]1O[C@]1(CO)[C@@H](O)[C@@]1(O)[C@H]4[C@H]([C@H](C)[C@@H]1OC(=O)c1ccccc1)[C@H](C)CCCCCC[C@H]5O)O2 | luminescence | >2.5 µM
CC(=O)O[C@@H]1[C@H](OC(=O)CC(C)C)c2c(ccc3ccc(=O)oc23)OC1(C)C |  | >1.5 µM
CCCc1cc(=O)oc2c3c(c4c(c12)OC(C)(C)C=C4)O[C@@H](C)[C@H](C)[C@@H]3O |  | 10–20 µM
CCCCCCC(=O)OC1(C)c2ccccc2-c2c1c(-n1ccnc1)nc1ccc(Br)cc21 | MTT | >20 µg/mL
CC[C@@]1(O)C(=O)OCc2c1cc1n(c2=O)Cc2cc3c([N+](=O)[O-])cccc3nc2-1 |  | >0.05 µM
Nc1ccn([C@H]2CO[C@@H](CO)S2)c(=O)n1 |  | >500 µM
Cc1cn([C@H]2C[C@H](N=[N+]=[N-])[C@@H](CO)O2)c(=O)[nH]c1=O | MTT | 30 µM
CC[C@@H](C(=O)[C@@H](C)[C@@H](O)[C@H](C)CCc1ccc(C)c(O)c1C(=O)O)[C@H]1O[C@](CC)([C@H]2CC[C@](O)(CC)[C@H](C)O2)C[C@@H]1C |  | 1.35 µg/mL
CCCCCCCCCCCCCC(=O)OC[C@@H](COP(=O)(O)OC[C@@H]1CC[C@H](n2ccc(N)nc2=O)O1)OC(=O)CCCCCCCCCCCCC |  | >71.4 µM
CCCc1cc(=O)oc2c3c(c4c(c12)OC(C)(C)C=C4)O[C@H](C)[C@@H](C)[C@@H]3O |  | 10–20 µM
COC1CCC(OC2CC(C3(C)CCC4(CC(O)C(C)C(C(C)/C=C(\C)C(=O)C(C)CC(C)C(=O)O)O4)O3)OC3(OC(C4OC(O)(CO)C(C)CC4C)CC3C)C2C)OC1C |  | 1.1 µg/mL
Nc1ccn([C@H]2CC[C@@H](CO)O2)c(=O)n1 |  | 5 µM
NOCc1c(F)cccc1Cl |  | 44.8 µg/mL
Cc1cn([C@H]2C[C@H](N=[N+]=[N-])[C@@H](CO)O2)c(=O)[nH]c1=O |  | 7.5 µg/mL
Cc1cn([C@H]2C[C@H](N=[N+]=[N-])[C@@H](CO)O2)c(=O)[nH]c1=O |  | >1000 µM
CS(=O)CCCCN=C=S | MTT | 8.88 µM
CCCCC(=O)OC1(C)c2ccccc2-c2c1c(-n1ccnc1)nc1ccc(Br)cc21 | MTT | >5 µg/mL
COC1CCC(OC2CC(C)(C3CCC(C4OC(C)(O)C(C)CC4C)O3)OC2C2(C)CC(C)C3(OC(CC4OC(O)(C(C)C(=O)O)C(C)C(OC)C4OC)CC(OC)C3C)O2)OC1C |  | 2.1 µg/mL
O=C(CCCCBr)O/N=C1\c2ccccc2-c2c1c(N1CCN(c3ccccn3)CC1)nc1ccc(Br)cc21 | MTT | >20 µg/mL
CCCCCOc1c(C)c(O)c2c3c1C(=O)/C(C)=C/[C@@](C)(O)[C@H](O)[C@@H](C)[C@@H](O)[C@@H]1C(=O)O[C@@H](C(C)[C@H]1O)[C@H](C)/C=C\C=C(/C)C(=O)NC(=C(C)C3=O)C2=O |  | 9 µg/mL
CCCCCCC(=O)O/N=C1\c2ccccc2-c2c1c(-n1ccnc1)nc1ccc(Br)cc21 | MTT | >20 µg/mL
Nc1ccn([C@@H]2CO[C@H](CO)S2)c(=O)n1 |  | 22 µM

The last 4 rows once more:

O=C(CCCCBr)O/N=C1\c2ccccc2-c2c1c(N1CCN(c3ccccn3)CC1)nc1ccc(Br)cc21 ; method: MTT ; value: >20 µg/mL
CCCCCOc1c(C)c(O)c2c3c1C(=O)/C(C)=C/[C@@](C)(O)[C@H](O)[C@@H](C)[C@@H](O)[C@@H]1C(=O)O[C@@H](C(C)[C@H]1O)[C@H](C)/C=C\C=C(/C)C(=O)NC(=C(C)C3=O)C2=O ; value: 9 µg/mL
CCCCCCC(=O)O/N=C1\c2ccccc2-c2c1c(-n1ccnc1)nc1ccc(Br)cc21 ; method: MTT ; value: >20 µg/mL
Nc1ccn([C@@H]2CO[C@H](CO)S2)c(=O)n1 ; value: 22 µM

Lines come from different laboratories, so protocols vary. Blank or dashed fields: not listed here. CCn: concentration that lowers growth or viability of the cells by n%.